Reference: patent publication US12122799B2, “Antibiotics for veterinary staphylococcal infections” (THE GEORGE WASHINGTON UNIVERSITY, A CONGRESSIONALLY …, priority 2018, dated 2024)

System: recombinant DXR enzyme
Assay: DXR enzyme activity assay
Assay type: biochemical

SMILES: CC(=O)N(O)CCCP(=O)(O)O
- IC50 (read-out: S. chromogenes IC50 (mean ± SD), n=3, tested form: monosodium salt): 0.36 µM
- IC50 (read-out: S. schleiferi IC50 (mean ± SD), n=3, tested form: monosodium salt): 1 µM

Like-named read-outs stand apart in the source and are kept apart here.
